# From PMC3376133, “Glutamine versus Ammonia Utilization in the NAD Synthetase Family” (PLoS ONE, 2012)
# Columns and labels:
# [1] = system: Nc1ncnc2c1ncn2[C@@H]1O[C@H](COP(=O)(O)OP(=O)(O)OP(=O)(O)O)[C@@H](O)[C@H]1O; experiment: purified protein; details: fixed 2 mM NaAD and 40 mM NH3, 10 mM MgCl2, pH 7.5, 37°C
# [2] = system: Nc1ncnc2c1ncn2[C@@H]1O[C@H](COP(=O)(O)OP(=O)([O-])OC[C@H]2O[C@@H]([n+]3cccc(C(=O)O)c3)[C@H](O)[C@@H]2O)[C@@H](O)[C@H]1O; experiment: purified protein; details: fixed 2 mM ATP and 40 mM NH3, 10 mM MgCl2, pH 7.5, 37°C
substance,measurement,setting,value
st_NADS (Salmonella enterica subsp. enterica serovar Typhimurium str. LT2; S48N),Km,[1],492 ± 80 µM
same,kcat,[1],0.65 ± 0.03 s⁻¹
same,Km,[2],118 ± 23 µM
same,kcat,[2],0.65 ± 0.02 s⁻¹
